From paper PMC5840262, “Design, Synthesis and Evaluation of Branched RRWQWR-Based Peptides as Antibacterial Agents Against Clinically Relevant Gram-Positive and Gram-Negative Pathogens” (Frontiers in Microbiology, 2018)
Bridge positions count the residues as written; N and C are the ends. Square brackets hold non-standard residues; d marks the D form. Peptide text beside a SMILES is read from it. I, II: the chains in the order shown. Ahx = NCCCCCC(=O)O

Assays:
[1] = system: Gram-negative ATCC strains (K. pneumoniae 13883 and 700603, P. aeruginosa 10145 and 27853); conditions: for Therapeutic index MHC/MIC: Hmax/GM
Source text: (§1) We determined the therapeutic index of each peptide, which we defined as the ratio of Maximum Hemolytic Activity (Hmax) to MIC50 (Hmax/MIC50).
(§2) The therapeutic index (TI) is a ratio of the toxic dose of a substance to its therapeutically-active dose and can be calculated different ways (e.g., LD50/ED50). Here, we calculated a TI value for each peptide against all the Gram-positive or the Gram-negative ATCC strains, by dividing its Hmax by its MIC50 for the given group of strains. […] Additionally, to make our quantitative analysis more robust [geometric mean (Khachatryan et al., [2017]) and fold values], we have included MIC50 values for these peptides against S. aureus and K. pneumoniae that we previously obtained using the same assay, the M7-A7 method of the National Committee for Clinical Laboratory Standards (Leon-Calvijo et al., [2015]).

[2] = system: Gram-positive ATCC strains (E. faecalis 29212, S. aureus 25923 and 33591); conditions: for Therapeutic index MHC/MIC: Hmax/GM
Source text: as §1, §2

[3] = system: clinical isolates of Gram-positive bacteria (Enteroccocus faecium, Staphylococcus aureus); test: Therapeutic index, Gram-positive clinical isolates
Source text: as §1
(§3) The results are shown in Table 7 (Gram-positive) and Table 8 (Gram-negative). Regarding the Gram-positive bacteria, the palindromic, dimeric and tetrameric peptides were active chiefly against S. aureus. This trend was consistent with results of the experiments on the ATCC strains, in which these peptides were only active against the sensitive strain of the […] bacteria.

[4] = system: clinical isolates of Gram-negative bacteria (Klebsiella pneumoniae, Pseudomonas aeruginosa); test: Therapeutic index, Gram-negative clinical isolates
Source text: as §1, §3

Compound | Therapeutic index MHC/MIC [1] | Therapeutic index MHC/MIC [2] | Therapeutic index Fold (TI peptide / TI tetrameric peptide) [3] | Therapeutic index MHC/MIC50 [3] | Therapeutic index Fold (TI peptide / TI tetrameric peptide) [4] | Therapeutic index MHC/MIC50 [4] | Therapeutic index Fold (TI peptide / TI tetrameric peptide) [1] | Therapeutic index Fold (TI peptide / TI tetrameric peptide) [2]
CSCC[C@H](NC(=O)[C@H](CCCNC(=N)N)NC(=O)[C@H](Cc1c[nH]c2ccccc12)NC(=O)[C@H](CCC(N)=O)NC(=O)[C@H](Cc1c[nH]c2ccccc12)NC(=O)[C@H](CCCNC(=N)N)NC(=O)[C@H](CCCNC(=N)N)NC(=O)[C@H](CS)NC(=O)[C@H](CCCCN)NC(=O)[C@@H](N)Cc1ccccc1)C(=O)N[C@@H](CCCCN)C(=O)N[C@@H](CCCCN)C(=O)N[C@@H](CC(C)C)C(=O)NCC(=O)N[C@@H](C)C(N)=O [LfcinB (17–31), reference compound] | 0.2 | 0.6 |  |  |  |  |  | 
N=C(N)NCCC[C@H](NC(=O)[C@H](Cc1c[nH]c2ccccc12)NC(=O)[C@H](CCC(N)=O)NC(=O)[C@H](Cc1c[nH]c2ccccc12)NC(=O)[C@H](CCCNC(=N)N)NC(=O)[C@@H](N)CCCNC(=N)N)C(=O)NCCCC[C@H](NC(=O)[C@H](CCCNC(=N)N)NC(=O)[C@H](Cc1c[nH]c2ccccc12)NC(=O)[C@H](CCC(N)=O)NC(=O)[C@H](Cc1c[nH]c2ccccc12)NC(=O)[C@H](CCCNC(=N)N)NC(=O)[C@@H](N)CCCNC(=N)N)C(=O)NCCCCCC(N)=O [LfcinB (20–25)2] (I: H-RRWQWRK[Ahx]-NH2 / II: H-RRWQWR; amide I:7-II:C; N-terminus assumed) | 6.2 | 10.2 | 0.4 | 6.1 | 0.6 | 6.0 | 0.8 | 0.3
(RRWQWR)4K2Ahx2C2 (disulfide) [LfcinB (20–25)4, branched tetrameric peptide (RRWQWR)4K2Ahx2C2, two dimers linked by a cysteine disulfide bridge] | 7.6 | 31.8 | 1.0 | 14.4 | 1.0 | 10.4 | 1.0 | 1.0
